According to ChEMBL document CHEMBL1156829 (Proc Natl Acad Sci U S A, 2008):

Key:
Plasmodium falciparum [1] = assay: NOVARTIS: Inhibition of Plasmodium falciparum 3D7 (drug-susceptible) proliferation in erythrocyte-based infection assay; type: functional, organism-based
Plasmodium falciparum [2] = assay: NOVARTIS: Inhibition of Plasmodium falciparum W2 (drug-resistant) proliferation in erythrocyte-based infection assay; type: functional, organism-based

| Compound | EC50 (Plasmodium falciparum [1]) | EC50 (Plasmodium falciparum [2]) |
| --- | --- | --- |
| O=[N+]([O-])c1ccc(NCCN(CCO)c2ccc([N+](=O)[O-])cc2[N+](=O)[O-])c(Cl)c1 | 668 nM | 529 nM |
| Cc1nc(Nc2cccc([N+](=O)[O-])c2)nc(Nc2cccc([N+](=O)[O-])c2)c1[N+](=O)[O-] | 6750 nM | 645 nM |
